The record followed here is US5225437A, “1,2,4-trioxane compounds having antimalarial activity” (The Johns Hopkins University, priority 1992, dated 1993).

In experiment [1] the test system is P. falciparum malaria parasite clone Indochina (W-2). Kind of experiment: in vitro susceptibility testing, uptake of tritiated hypoxanthine as index of inhibition of parasite growth, Indochina (W-2) clone. It is filed as cell-based. The settings on record: for IC50: read-out: W2 IC50, Table IV; for IC90: read-out: W2 IC90, Table IV.
Experiment [2] concerns P. falciparum malaria parasite clone Sierra Leone (D-6). Nature of the experiment: in vitro susceptibility testing, uptake of tritiated hypoxanthine as index of inhibition of parasite growth, Sierra Leone (D-6) clone. The conditions noted are these: for IC50: read-out: D6 IC50, Table IV; for IC90: read-out: D6 IC90, Table IV.

Molecules are shown by their SMILES.

Consider `CCOP(=S)(OCC)OCCC1CCCC2CCC3(C)OOC12C(OC)O3` (centres unmarked), for which the half-maximal inhibitory concentration (IC50) (in general, the concentration that inhibits the measured activity by half) in experiment [1] stood at 0.29 nM; in experiment [2], 0.97 nM. The IC90 (usually the concentration needed for an effect of 90%) came to 1.39 nM in experiment [1] and 5.16 nM in experiment [2].

Take `COC1OC2(C)CCC3CCCC(CCOP(=O)(Oc4ccccc4)Oc4ccccc4)C31OO2` (centres unmarked): the IC50 was under 0.16 nM in experiment [1] and 0.52 nM in experiment [2]. Further, the IC90 is under 0.16 nM in experiment [1] and 5.01 nM in experiment [2].
